Anti-infective test results gathered from many reports (values: NIAID ChemDB through PubChem).

Common to all: toxicity to cultured cells; cells: H9; measure: CC50

An empty or dashed field is not shown. Neighbouring rows are from separate reports. CCn is the concentration with n% toxicity to the cells.

compound	method	result
CCOC(=O)c1cc(C(=O)NCc2cccnc2)n2ccc(C(=O)c3ccco3)cc12	MTT	233.5 µM
CC1(C)Oc2ccc3ccc(=O)oc3c2[C@@H](OC(=O)C23CCC(C)(C(=O)O2)C3(C)C)[C@@H]1OC(=O)C12CCC(C)(C(=O)O1)C2(C)C		72.3 µM
CC(C)[C@@H](NC(=O)C[C@@H]1O[C@@H]1[C@H](Cc1ccccc1)NC(=O)[C@H](CS(C)(=O)=O)NC(=O)c1ccc2ccccc2n1)c1ccccc1		>100 µM
C=C(C)[C@@H]1CC[C@]2(C(=O)NCCCCCCCC(=O)N[C@@H](CC(C)C)[C@@H](O)CC(=O)O)CC[C@]3(C)[C@H](CC[C@@H]4[C@@]5(C)CC[C@H](O)C(C)(C)[C@@H]5CC[C@]43C)[C@@H]12		2.7 µM
COc1c(Br)c2c(c(OC)c1OC)-c1c(c(Br)c3c(c1OC)OCO3)C[C@H](C)[C@@](C)(O)C2		9 µg/mL
CC1(C)Oc2ccc3ccc(=O)oc3c2C(N=[N+]=[N-])C1O		335 µM
CCOC(=O)c1cc(C(=O)c2ccccc2)n2ccc(C(=O)N[C@@H](Cc3c[nH]c4ccccc34)C(=O)OC)cc12	MTT	139 µM
CC(C)=CC(=O)OC1c2c(ccc3ccc(=O)oc23)OC(C)(C)C1OC(=O)C=C(C)C		16.45 µM
CC1(C)Oc2ccc3ccc(=O)oc3c2[C@@H](OC(=O)C23CCC(C)(C(=O)O2)C3(C)C)[C@H]1OC(=O)C12CCC(C)(C(=O)O1)C2(C)C	XTT	>16.1 µM
CC1(C)Oc2ccc3ccc(=O)oc3c2C(OC(=O)c2cccc(Cl)c2)C1O		10.08 µM
C/C=C(/C)C(=O)OC1c2cc3c(c4c2[C@](C(=O)C(=O)OC)(CO4)/C(=C\C(=O)OC)C[C@@H](C)[C@H]1C)OCO3		>100 µg/mL
CCOC(=O)c1cc(C(=O)c2ccccc2)n2ccc(C(=O)N[C@@H](C(=O)OC)c3ccccc3)cc12	MTT	229 µM
Cc1c(CBr)c(=O)oc2c3c(ccc12)OC(C)(C)[C@H](OC(=O)C12CCC(C)(C(=O)O1)C2(C)C)[C@@H]3OC(=O)C12CCC(C)(C(=O)O1)C2(C)C	XTT	>20.9 µM
CC(C)[C@@H]1CC[C@]2(C(=O)O)CC[C@]3(C)[C@H](CC[C@@H]4[C@@]5(C)CC[C@H](OC(=O)CCC(=O)O)C(C)(C)[C@@H]5CC[C@]43C)[C@@H]12		13.4 µM
COc1cc2c(c(OC)c1OC)-c1c(cc(OC)c(OC)c1OC)C[C@](C)(O)[C@@H](C)C2		9 µg/mL
CCC(C)C(=O)OC1c2c(ccc3ccc(=O)oc23)OC(C)(C)C1OC(=O)C(C)CC		100.8 µM
C=C(C)[C@@H]1CC[C@]2(C(=O)O)CC[C@]3(C)[C@H](CC[C@@H]4[C@@]5(C)CC[C@H](OC(=O)CCCC(=O)O)C(C)(C)[C@@H]5CC[C@]43C)[C@@H]12		12.8 µM
CC(C)[C@H](Cc1ccccc1)NC(=O)C[C@@H]1O[C@@H]1[C@H](Cc1ccccc1)NC(=O)[C@@H](NC(=O)c1cc(=O)c2ccccc2o1)C(C)(C)S(C)(=O)=O		>100 µM
COc1c(Br)c2c(c(OC)c1OC)-c1c(c(Br)c(OC)c(OC)c1OC)C[C@H](C)[C@H](C)C2		25 µg/mL
CC(C)[C@@H]1CC[C@]2(C(=O)O)CC[C@]3(C)[C@H](CC[C@@H]4[C@@]5(C)CC[C@H](OC(=O)C67CCC(C)(C(=O)O6)C7(C)C)C(C)(C)[C@@H]5CC[C@]43C)[C@@H]12		1 µM
Cc1cn([C@H]2C[C@H](N=[N+]=[N-])[C@@H](CO)O2)c(=O)[nH]c1=O	XTT	1872 µM
CC1CCC(C(C)C)C(OC(=O)OC2c3c(ccc4ccc(=O)oc34)OC(C)(C)C2OC(=O)OC2CC(C)CCC2C(C)C)C1		33.06 µM
CC(C)[C@H](Cc1ccccc1)NC(=O)C[C@@H]1O[C@@H]1[C@H](Cc1ccccc1)NC(=O)[C@@H](NC(=O)CN1CCCC1)C(C)(C)S(C)(=O)=O		>100 µM
C/C=C(/C)C(=O)OC1c2cc3c(c(OC)c2-c2c(cc4c(c2OC)OCO4)C[C@H](C)[C@]1(C)O)OCO3		50 µg/mL
CC1(C)Oc2ccc3cc(C(Br)Br)c(=O)oc3c2[C@@H](OC(=O)C23CCC(C)(C(=O)O2)C3(C)C)[C@H]1OC(=O)C12CCC(C)(C(=O)O1)C2(C)C		3.2 µM
CCOC(=O)c1cc(C(=O)c2ccc(F)c(N)c2)n2ccc(C(=O)NCc3ccccn3)cc12	MTT	120.5 µM
CC(=O)N[C@H](C(=O)N[C@@H](Cc1ccccc1)[C@H]1O[C@H]1CC(=O)N[C@@H](Cc1ccccc1)C(C)C)C(C)(C)S(C)(=O)=O		>100 µM
CCN(CC)Cc1cc2ccc3c(c2oc1=O)[C@@H](OC(=O)C12CCC(C)(C(=O)O1)C2(C)C)[C@@H](OC(=O)C12CCC(C)(C(=O)O1)C2(C)C)C(C)(C)O3		43.01 µM
CCOC(=O)c1cc(C(=O)c2cccs2)n2ccc(C(=O)NCc3ccccn3)cc12	MTT	53.4 µM
CC(C)[C@@H]1CC[C@]2(C(=O)OCc3ccccc3)CC[C@]3(C)[C@H](CC[C@@H]4[C@@]5(C)CC[C@H](OC(=O)CC(C)(C)C(=O)O)C(C)(C)[C@@H]5CC[C@]43C)[C@@H]12		13 µM
Cc1cc(=O)oc2c3c(c(CO)cc12)OC(C)(C)[C@H](OC(=O)[C@@]12CC[C@@](C)(C(=O)O1)C2(C)C)[C@@H]3OC(=O)[C@@]12CC[C@@](C)(C(=O)O1)C2(C)C	XTT	>15 µM
CCOC(=O)c1cc(C(=O)c2ccccc2)n2ccc(C(=O)NCc3ccco3)cc12	MTT	98.2 µM
CC(C)[C@@H](NC(=O)C[C@@H]1O[C@@H]1[C@H](Cc1ccccc1)NC(=O)[C@@H](NC(=O)OCc1ccccn1)C(C)(C)S(C)(=O)=O)c1ccccc1		>100 µM
CC1(C)Oc2ccc3cc(CBr)c(=O)oc3c2[C@@H](OC(=O)C23CCC(C)(C(=O)O2)C3(C)C)[C@H]1OC(=O)C12CCC(C)(C(=O)O1)C2(C)C		3.38 µM
COc1c(Br)c2c(c(OC)c1OC)-c1c(c(Br)c3c(c1OC)OCO3)C[C@@H](C)[C@@H](C)C2		20 µg/mL
CC(C)(C)CC(=O)O[C@@H]1c2c(ccc3ccc(=O)oc23)OC(C)(C)[C@@H]1OC(=O)CC(C)(C)C		43.6 µM
C/C=C(/C)C(=O)OC1c2cc3c(c(OC)c2-c2c(cc4c(c2OC)OCO4)C[C@H](C)[C@H]1C)OCO3		40 µg/mL
CC1(C)Oc2ccc3cc(CO)c(=O)oc3c2[C@@H](OC(=O)C23CCC(C)(C(=O)O2)C3(C)C)[C@H]1OC(=O)C12CCC(C)(C(=O)O1)C2(C)C	XTT	23 µM
CC(C)[C@H](Cc1ccccc1)NC(=O)C[C@@H]1O[C@@H]1[C@H](Cc1ccccc1)NC(=O)[C@H](CS(C)(=O)=O)NC(=O)c1ccc2ccccc2n1		>100 µM
COc1cc2c(c(OC)c1OC)-c1c(cc3c(c1OC)OCO3)C[C@@H](C)[C@@H](C)C2		45 µg/mL

The last 4 rows once more:

{"compound": "C/C=C(/C)C(=O)OC1c2cc3c(c(OC)c2-c2c(cc4c(c2OC)OCO4)C[C@H](C)[C@H]1C)OCO3", "result": "40 µg/mL"}
{"compound": "CC1(C)Oc2ccc3cc(CO)c(=O)oc3c2[C@@H](OC(=O)C23CCC(C)(C(=O)O2)C3(C)C)[C@H]1OC(=O)C12CCC(C)(C(=O)O1)C2(C)C", "method": "XTT", "result": "23 µM"}
{"compound": "CC(C)[C@H](Cc1ccccc1)NC(=O)C[C@@H]1O[C@@H]1[C@H](Cc1ccccc1)NC(=O)[C@H](CS(C)(=O)=O)NC(=O)c1ccc2ccccc2n1", "result": ">100 µM"}
{"compound": "COc1cc2c(c(OC)c1OC)-c1c(cc3c(c1OC)OCO3)C[C@@H](C)[C@@H](C)C2", "result": "45 µg/mL"}